Measured values from several laboratories, pooled; numbers as filed in NIAID ChemDB.

Common to all: tests in culture; organism: HIV-2; read-out: EC50

Blank or dashed fields: not listed here. ECn is the concentration giving n% inhibition of infection, replication or growth. Neighbouring rows are from separate reports.

smiles | strain | cell line | read by | value
CC(C)[C@H](NC(=O)c1ccccc1)C(=O)N/N=C/c1c(F)cccc1F | ROD | MT-4 | MTT | >348 µM
CC(C)CCC[C@@H](C)[C@H]1CC[C@H]2[C@@H]3CC[C@H]4C[C@@H](CCC=C(c5cc(Cl)c(O)c(C(=O)O)c5)c5cc(Cl)c(O)c(C(=O)O)c5)CC[C@]4(C)[C@H]3CC[C@]12C | ROD | HuT-78 + HUT 78 | syncytia | 25 µg/mL
COc1ccc(CCN2C(=O)/C(=C\c3ccccc3Cl)N(CCc3ccc(OC)c(OC)c3)C2=S)cc1OC | ROD | MT-4 | cytopathic effect / MTT | >19.5 µg/mL
C=C(C)[C@@H]1CC[C@]2(C(=O)NCCCCCCCC(=O)N[C@@H](CC(C)C)[C@@H](O)CC(=O)O)CC[C@]3(C)[C@H](CC[C@@H]4[C@@]5(C)CC[C@H](O)C(C)(C)[C@@H]5CC[C@]43C)[C@@H]12 | ROD | CEM | cytopathic effect / MTT | >1 µM
CN=C(Nn1c(C)nc2ccccc2c1=O)SC | ROD | MT-4 | MTT | 100 µg/mL
CCn1nc(-c2ccc(Cn3ccc4ccccc43)cc2)nc1C | ROD | MT-4 | cytopathic effect | >0.436 µg/mL
C[C@]12CCC3C(CC[C@H]4C[C@@H](CCC=C(c5cc(Cl)c(O)c(C(=O)O)c5)c5cc(Cl)c(O)c(C(=O)O)c5)CC[C@]34C)C1CC[C@@H]2CCC=C(c1cc(Cl)c(O)c(C(=O)O)c1)c1cc(Cl)c(O)c(C(=O)O)c1 | ROD | MT-4 | cytopathic effect / MTT | 74 µM
Cn1c(=O)cnn([C@H]2C[C@H](O)[C@@H](CO)S2)c1=O | ROD | CEM | syncytia | >100 µM
COC(=O)/C=C1\S/C(=N/N=C/c2ccccc2Br)NC1=O | ROD | MT-4 | cytopathic effect / MTT | >13.45 µM
CCn1nc(CC(=O)NN=C(C)C)nc1C | ROD | MT-4 | cytopathic effect | >108 µg/mL
CC(C)[C@H](NC(=O)c1ccccc1)C(=O)N/N=C/c1c(F)cccc1Cl | ROD | MT-4 | MTT | >332 µM
COc1ccc(CCN2C(=O)/C(=C\c3ccccc3)N(CCc3ccc(OC)c(OC)c3)C2=S)cc1OC | ROD | MT-4 | cytopathic effect / MTT | >56.6 µg/mL
O=C(OC1[C@H](OC(=O)c2cc(O)c(O)c(O)c2)CC(OC(=O)c2cc(O)c(O)c(O)c2)(C(=O)O)C[C@H]1OC(=O)c1cc(O)c(O)c(O)c1)c1cc(O)c(O)c(O)c1 | ROD | CEM + CEM-SS | XTT | ~10 µM
C/C(=N\Nc1nc(-c2ccc([N+](=O)[O-])cc2)cs1)c1ccc(Cl)c(Cl)c1 | ROD | MT-4 | MTT | >14.07 µM
CC(C)CCC[C@@H](C)[C@H]1CC[C@H]2[C@@H]3CC[C@H]4C[C@@H](CCC=C(c5cc(Cl)c(O)c(C(=O)O)c5)c5cc(Cl)c(O)c(C(=O)O)c5)CC[C@]4(C)[C@H]3CC[C@]12C | NIH-D2 | CEM + CEM-SS | cytopathic effect | 5 µM
COP(=O)(c1cc(C)cc(CCC#N)c1)c1c(C(N)=O)[nH]c2ccc(Cl)cc12 | ROD | H9 |  | >1.25 µM
CC(C)[C@@H](NC(=O)c1ccccc1)C(=O)N/N=C/c1ccccc1F | ROD | MT-4 | MTT | >366 µM
O=c1nc2c(cn1[C@H]1C[C@H](O)[C@@H](CO)O1)CCON2 | ROD | CEM |  | >300 µM
CCCCCCCCn1c(=O)cnn([C@H]2C[C@H](O)[C@@H](CO)S2)c1=O | ROD | CEM | syncytia | >20 µM
O=S1(=O)N=C(Nc2ccc(Cl)c(F)c2)C=C(Cc2ccc3ccccc3c2)N1 | ROD | MT-4 | MTT | >152 µM
O=c1cnn([C@H]2C[C@H](O)[C@@H](CO)S2)c(=O)[nH]1 | ROD | CEM | syncytia | >100 µM
O=c1ccn(C[C@H]2CCC[C@H]2CO)c(=O)[nH]1 |  | CEM | cytopathic effect | >100 µg/mL
CC(O)c1nc(=O)n([C@@H]2O[C@H](CO)[C@H]3OC(C)(C)O[C@H]32)cc1CO | ROD | CEM |  | >300 µM
CC(C)[C@H](CC[C@@H](C)[C@H]1C[C@H](OS(=O)(=O)O)[C@H]2[C@@H]3C[C@H](O)[C@H]4C[C@@H](O)CC[C@]4(C)[C@H]3CC[C@@]21C)OC1OC[C@@H](O)[C@H](O)[C@@H]1O | CLB20 | CEM + CEM-SS | cytopathic effect / XTT | >100 µM
Brc1ccc(-c2nc(-c3nnc(C45CCC6CC(CC4C6)C5)o3)cs2)cc1 | ROD | MT-4 | MTT | >110 µM
O=c1[nH]c(=O)n([C@H]2CCC[C@@H]2CO)cc1I |  | CEM | cytopathic effect | >100 µg/mL
O=S1(=O)N=C(Nc2cccc(Cl)c2)C=C(Cc2cccc3ccccc23)N1 | ROD | MT-4 | MTT | >161 µM
C=CCN=C(Nn1c(C)nc2ccccc2c1=O)SC | ROD | MT-4 | MTT | 5.77 µg/mL
Cc1cn(C2CC(N=[N+]=[N-])C(COC(C(=O)O)P(=O)(O)OP(=O)(O)OP(=O)(O)O)O2)c(=O)[nH]c1=O | ROD | CEM | cytopathic effect / syncytia | ≥100 µg/mL
Cc1cn([C@@H]2OC(O[Si](C)(C)C(C)(C)C)C3(OS(=O)(=O)C=C3NCCC(=O)OCc3ccccc3)C2O[Si](C)(C)C(C)(C)C)c(=O)n(C)c1=O | ROD | CEM | syncytia | >250 µM
CCOC(=O)C(C(=O)OCC)=C1C=CN([C@H]2C[C@H](N=[N+]=[N-])[C@@H](CO)O2)C(=O)N1 | ROD | CEM |  | >300 µM
c1ccc(CNCc2ccc(CN3CCCNCCNCCCNCC3)cc2)nc1 | ECO |  |  | 0.03 µg/mL
Cc1ccc(CN=C2C=C(Cc3ccccc3)NS(=O)(=O)N2)cc1 | ROD | MT-4 | MTT | >192 µM
O=c1[nH]c(=O)n(C[C@H]2CCC[C@H]2CO)cc1I |  | CEM | cytopathic effect | >100 µg/mL
COC(=O)/C=C1\S/C(=N/N=C/c2ccccc2OCc2ccccc2)NC1=O | ROD | MT-4 | cytopathic effect / MTT | >14.35 µM
Cc1ccc(-c2nc(-c3nnc(C45CCC6CC(CC4C6)C5)o3)cs2)cc1 | ROD | MT-4 | MTT | >105.7 µM
COc1ccc(CCN2C(=O)/C(=C\c3cccc(Oc4ccccc4)c3)N(CCc3ccc(OC)c(OC)c3)C2=S)cc1OC | ROD | MT-4 | cytopathic effect / MTT | >24.9 µg/mL
CC(C)CCC[C@@H](COS(=O)(=O)[O-])[C@H]1CCC2C3CC=C4C[C@H](O)C(OS(=O)(=O)[O-])C[C@]4(C)C3CC[C@@]21C.[Na+].[Na+] | CLB20 | CEM + CEM-SS | cytopathic effect / XTT | >100 µM
Cc1nc2c(N)ncnc2n1[C@H]1CC[C@@H](CO)O1 |  | CEM | cytopathic effect | >100 µg/mL
CCn1nc(CC(=O)N/N=C/c2ccccc2)nc1C | ROD | MT-4 | cytopathic effect | >125 µg/mL
COc1ccc2[nH]c(=O)c(CN(Cc3cccnc3)S(=O)(=O)c3cccc4nsnc34)cc2c1 | ROD | CEM | p24 / ELISA | 0.1365 µM
O=S1(=O)N=C(Nc2ccc(F)c(F)c2)C=C(Cc2ccc3ccccc3c2)N1 | ROD | MT-4 | MTT | >156 µM
Cc1ccccc1-c1nc(-c2nnc(C34CCC5CC(CC3C5)C4)o2)cs1 | ROD | MT-4 | MTT | >10.5 µM
CSC(=Nc1ccc([N+](=O)[O-])cc1)Nn1c(C)nc2ccccc2c1=O | ROD | MT-4 | MTT | 1.56 µg/mL
Cc1cc(C)c(S(=O)(=O)OCC2OC3OC4C(CO)OC(OC5C(CO)OC(OC6C(CO)OC(OC7C(CO)OC(OC8C(CO)OC(OC9C(C[n+]%10ccccc%10)OC(OC2C(O)C3O)C(O)C9O)C(O)C8O)C(O)C7O)C(O)C6O)C(O)C5O)C(O)C4O)c(C)c1 | GH-1 | MOLT-4 | syncytia | <64.4 µg/mL
Brc1ccc(-c2csc(N/N=C/c3cccnc3)n2)cc1 | ROD | MT-4 | MTT | >23.39 µM
O=c1nc(NO)c(CCCl)cn1[C@H]1C[C@H](O)[C@@H](CO)O1 | ROD | CEM |  | >300 µM
COc1ccc(/C=N/Nc2nc(-c3ccc(Cl)cc3)cs2)cc1 | ROD | MT-4 | MTT | >125 µM
CCOC(=O)c1c(C)n([C@H]2C[C@@H]2c2ccccc2)c2ccc(O)cc12 | ROD | MT-4 | MTT | >250 µM
CCCCn1c(=O)cnn([C@H]2C[C@H](O)[C@@H](CO)S2)c1=O | ROD | CEM | syncytia | >20 µM
COc1ccc(CCN2C(=O)/C(=C\c3cccc(Br)c3)N(CCc3ccc(OC)c(OC)c3)C2=S)cc1OC | ROD | MT-4 | cytopathic effect / MTT | >108 µg/mL
COc1c(Cl)cc(C(=CCCCCN[C@@H]2CC[C@]3(C)C4CC[C@@]5(C)C(CC[C@@H]5C(C)CCCC(C)C)C4CC[C@H]3C2)c2cc(Cl)c(OC)c(C(=O)O)c2)cc1C(=O)O | ROD | MT-4 | cytopathic effect / MTT | >150 µM
C(=N\Nc1nc(-c2ccccc2)cs1)/c1cccnc1 | ROD | MT-4 | MTT | >11.6 µM
NC(=O)c1cc2c([nH]c3ccccc32)c(-c2ccc(CO)o2)n1 | ROD | C8166 | syncytia | 0.57 µM
COC(=O)/C=C1\S/C(=N/N=C/c2ccc(OC)cc2)NC1=O | ROD | MT-4 | cytopathic effect / MTT | >72.1 µM
COc1c(Cl)cc(C(=CCCCCN[C@H]2CC[C@]3(C)C4CC[C@@]5(C)C(CC[C@@H]5C(C)CCCC(C)C)C4CC[C@H]3C2)c2cc(Cl)c(OC)c(C(=O)O)c2)cc1C(=O)O | ROD | MT-4 | cytopathic effect / MTT | >150 µM
CSC(=NCc1ccccc1)Nn1c(C)nc2ccccc2c1=O | ROD | MT-4 | MTT | 50.32 µg/mL
COC(=O)/C=C1\S/C(=N/N=C/c2ccc(Cl)cc2)NC1=O | ROD | MT-4 | cytopathic effect / MTT | >4.23 µM
COc1ccc(CCN2C(=O)/C(=C\c3ccc(N(C)C)cc3)N(CCc3ccc(OC)c(OC)c3)C2=S)cc1OC | ROD | MT-4 | cytopathic effect / MTT | >19.1 µg/mL
CSC(=Nc1ccccc1)Nn1c(C)nc2ccccc2c1=O | ROD | MT-4 | MTT | 57.26 µg/mL
COC(=O)/C=C1\S/C(=N/N=C/c2ccccc2Cl)NC1=O | ROD | MT-4 | cytopathic effect / MTT | >78.7 µM
C[C@H](CCC(=O)NC(CO)CS(=O)(=O)O)[C@H]1[C@@H](O)[C@H](O)C2C3C[C@@H](O)[C@@]4(O)C[C@@H](O)CC[C@]4(C)C3CC[C@@]21C | CLB20 | CEM + CEM-SS | cytopathic effect / XTT | >100 µM
Brc1cccc(-c2nc(-c3nnc(C45CCC6CC(CC4C6)C5)o3)cs2)c1 | ROD | MT-4 | MTT | >125 µM

4 of the rows above, restated:

smiles	strain	cell line	read by	value
CCOC(=O)C(C(=O)OCC)=C1C=CN([C@H]2C[C@H](N=[N+]=[N-])[C@@H](CO)O2)C(=O)N1	ROD	CEM		>300 µM
c1ccc(CNCc2ccc(CN3CCCNCCNCCCNCC3)cc2)nc1	ECO			0.03 µg/mL
CC(C)CCC[C@@H](COS(=O)(=O)[O-])[C@H]1CCC2C3CC=C4C[C@H](O)C(OS(=O)(=O)[O-])C[C@]4(C)C3CC[C@@]21C.[Na+].[Na+]	CLB20	CEM + CEM-SS	cytopathic effect / XTT	>100 µM
CN=C(Nn1c(C)nc2ccccc2c1=O)SC	ROD	MT-4	MTT	100 µg/mL